Measurements as given in paper PMC10743929, “Amphiphilic Sialic Acid Derivatives as Potential Dual-Specific Inhibitors of Influenza Hemagglutinin and Neuraminidase” (International Journal of Molecular Sciences, 2023).

System: Madin-Darby canine kidney (MDCK) cells
Settings: dog

NC(=O)c1ncn([C@@H]2O[C@H](CO)[C@@H](O)[C@H]2O)n1 [Ribavirin, reference compound]
Cytotoxicity MCC (minimum cytotoxic concentration): 100 ± 0 µM
